{"source": "PubChem BioAssay AID504884", "about": "(Broad Institute, 2011)", "note": "This is a selection; strong and weak results do not stand in their true shares. Some salts and complexes are drawn in separate pieces, as the source files them; their charges need not balance. Calls of active or inactive are those of the source. No stated cut-off is given here; in the data, active means activity above about 50% (passing the limit was not always enough); inconclusive means no clear call, values can overlap the other calls."}
{"tested_on": "DNA topoisomerase I (Yersinia pestis CO92)", "assay": "Yersinia pestis topoisomerase I inhibitors, primary screen, biochemical, cleavage product accumulation, plate reader, single point (AID 504884)", "details": "Y. pestis Topo-I cleavage product accumulation, at 10 µM, hits give high values"}
{"smiles": "COc1ccc(OP(C)(=O)Nc2ccccn2)cc1", "note": "(stereo not drawn)", "activity": "inactive: -8.1%"}
{"smiles": "COc1ccccc1OP(C)(=O)Nc1ccc(Br)cc1", "note": "(stereo not drawn)", "activity": "inactive: 4.03%"}
{"smiles": "CCc1ccc(OP(C)(=O)O)cc1", "activity": "inactive: 0.866%"}
{"smiles": "CP(=O)(Nc1ccccn1)Oc1ccccc1", "note": "(stereo not drawn)", "activity": "inactive: 4.57%"}
{"smiles": "COc1ccccc1OP(C)(=O)Nc1ccc(C)cc1C", "note": "(stereo not drawn)", "activity": "inactive: 6.2%"}
{"smiles": "O=[N+]([O-])c1cc([N+](=O)[O-])c(Nc2ccccn2)c([N+](=O)[O-])c1", "activity": "inactive: -0.0292%"}
{"smiles": "Cc1c(NP(C)(=O)Oc2ccc(C(C)C)cc2)c(=O)n(-c2ccccc2)n1C", "note": "(stereo not drawn)", "activity": "inactive: -4.31%"}
{"smiles": "COc1ccc(OP(C)(=O)Nc2ccccc2Br)cc1", "note": "(stereo not drawn)", "activity": "inactive: 6.08%"}
{"smiles": "COc1ccccc1OP(C)(=O)Nc1ccc(C)c(C)c1", "note": "(stereo not drawn)", "activity": "inactive: 13.3%"}
{"smiles": "O=C1C(O)=C([N+](=O)[O-])C(=O)C(O)=C1[N+](=O)[O-]", "activity": "inactive: -7.31%"}
{"smiles": "Cc1cc(C)cc(OP(C)(=O)Nc2cccc(C(F)(F)F)c2)c1", "note": "(stereo not drawn)", "activity": "inactive: 25.7%"}
{"smiles": "CP(=O)(OCCOc1ccccc1)OCCOc1ccccc1", "activity": "inactive: 8.68%"}
{"smiles": "CP(=O)(Nc1ccc(Cl)cc1Cl)Oc1ccccc1", "note": "(stereo not drawn)", "activity": "inactive: 11.7%"}
{"smiles": "CCCCCCCCCCCCCCCC1C[N+](C)(C)CCOP(C)(=O)O1", "note": "(stereo not drawn)", "activity": "inactive: -35.1%"}
{"smiles": "COc1ccc(OP(C)(=O)Nc2ccc(SC(F)(F)F)cc2)cc1", "note": "(stereo not drawn)", "activity": "inactive: 15.8%"}
{"smiles": "CCOC(=O)c1ccc(NP(C)(=O)Oc2ccc(F)cc2)cc1", "note": "(stereo not drawn)", "activity": "inactive: 5.46%"}
{"smiles": "O=[N+]([O-])c1cc([N+](=O)[O-])c(OC2CCCCC2O)c([N+](=O)[O-])c1", "note": "(stereo not drawn)", "activity": "inactive: -8.32%"}
{"smiles": "CCCCCOc1ccc(NP(C)(=O)Oc2ccc(Cl)cc2Cl)cc1", "note": "(stereo not drawn)", "activity": "inactive: 17.2%"}
{"smiles": "CP(=O)(Nc1ccccc1)Oc1ccc(F)cc1", "note": "(stereo not drawn)", "activity": "inactive: -12%"}
{"smiles": "CCN(CC)CCCOC(=O)C(O)(c1ccccc1)C1CCCCC1", "note": "(stereo not drawn)", "activity": "inactive: -7.87%"}
{"smiles": "Cc1c([N+](=O)[O-])cc([N+](=O)[O-])c(Br)c1[N+](=O)[O-]", "activity": "inactive: -5.9%"}
{"smiles": "CC(C)c1ccc(OP(C)(=O)Nc2ccc(SC(F)(F)F)cc2)cc1", "note": "(stereo not drawn)", "activity": "inactive: 36.4%"}
{"smiles": "CP(=O)(Nc1ccccc1F)Oc1ccccc1", "note": "(stereo not drawn)", "activity": "inactive: -8.98%"}
{"smiles": "O=[N+]([O-])c1cc([N+](=O)[O-])c(Nc2ccc(Cl)cc2)c([N+](=O)[O-])c1", "activity": "inactive: -13.8%"}
{"smiles": "COc1ccc2c(c1O)-c1c(O)c(OC)cc3c1[C@H](C2)[N+](C)(C)CC3.O=[N+]([O-])c1cc([N+](=O)[O-])c([O-])c([N+](=O)[O-])c1[O-]", "activity": "inactive: -7.14%"}
{"smiles": "O=C(OCCN1CCN(CCOCc2ccccc2)CC1)C(O)(c1ccccc1)c1ccccc1", "activity": "inactive: 11.3%"}
{"smiles": "O=C(OC1CN2CCC1CC2)c1ccc([N+](=O)[O-])cc1", "note": "(stereo not drawn)", "activity": "inactive: -9.04%"}
{"smiles": "CCOP(C)(=S)SCC(=O)NC(C)(CC)C(=O)O", "note": "(stereo not drawn)", "activity": "inactive: -3.46%"}
{"smiles": "CP(=O)(Nc1ccc(SC(F)(F)F)cc1)Oc1ccc(F)cc1", "note": "(stereo not drawn)", "activity": "inactive: 8.38%"}
{"smiles": "Cc1ccccc1NP(C)(=O)Nc1ccccc1C", "activity": "inactive: -0.447%"}
{"smiles": "CP(=O)(Nc1ccc2c(c1)OCCO2)Oc1ccccc1", "note": "(stereo not drawn)", "activity": "inactive: 2.16%"}
{"smiles": "COc1ccc(NP(C)(=O)Oc2ccccc2OC)cc1", "note": "(stereo not drawn)", "activity": "inactive: 3.45%"}
{"smiles": "CN(C)CCOC(=O)C(O)(c1ccccc1)C1CCCCC1", "note": "(stereo not drawn)", "activity": "inactive: 5.6%"}
{"smiles": "COc1ccc(OP(C)(=O)Nc2cccc(Br)c2)cc1", "note": "(stereo not drawn)", "activity": "inactive: 15.5%"}
{"smiles": "Cc1c(C(c2ccc3c(c2)OCO3)c2c(C)n(C)n(-c3ccccc3)c2=O)c(=O)n(-c2ccccc2)n1C.O=[N+]([O-])c1cc([N+](=O)[O-])c(O)c([N+](=O)[O-])c1", "activity": "inactive: -3.93%"}
{"smiles": "O=[N+]([O-])c1cc([N+](=O)[O-])c(NCC2CCS(=O)(=O)C2)c([N+](=O)[O-])c1", "note": "(stereo not drawn)", "activity": "inactive: 1.88%"}
{"smiles": "Cc1cc(-c2cccc3ccccc23)c(C)cn1.O=[N+]([O-])c1cc([N+](=O)[O-])c(O)c([N+](=O)[O-])c1", "activity": "inactive: 23.8%"}
{"smiles": "O=[N+]([O-])c1ccc(OP2(=O)COCCO2)cc1", "note": "(stereo not drawn)", "activity": "inactive: -3.74%"}
